Here are results for 1 molecule from US20070224205A1 (published 2007).

The target in the experiment is Toll-like Receptor 5 (UniProt O60602 21-858). Briefly: cell-based or functional assay.

B1: STF2.4×H1C1 (other)
chain: MAQVINTNSLSLLTQNNLNKSQSALGTAIERLSSGLRINSAKDDAAGQAIANRFTANIKGLTQASRNANDGISIAQTTEGALNEINNNLQRVRELAVQSANSTNSQSDLDSIQAEITQRLNEIDRVSGQTQFNGVKVLAQDNTLTIQVGANDGETIDIDLKQINSQTLGLDSLNVQKAYDVKDTAVTTKAYANNGTTLDVSGLDDAAIKAATGGTNGTASVTGGAVKFDADNNKYFVTIGGFTGADAAKNGDYEVNVATDGTVTLAAGATKTTMPAGATTKTEVQELKDTPAVVSADAKNALIAGGVDATDANGAELVKMSYTDKNGKTIEGGYALKAGDKYYAADYDEATGAIKAKTTSYTAADGTTKTAANQLGGVDGKTEVVTIDGKTYNASKAAGHDFKAQPELAEAAAKTTENPLQKIDAALAQVDALRSDLGAVQNRFNSAITNLGNTVNNLSEARSRIEDSDYATEVSNMSRAQILQQAGTSVLAQANQVPQNVLSLLAMEWENIPSIQSRGLFGAIAGFIEEWENIPSIQSRGLFGAIAGFIEEWENIPSIQSRGLFGAIAGFIEEWENIPSIQSRGLFGAIAGFIE
B1: the “in vitro TLR5 activity (EC50); IL-8 secretion by HEK293 cells” value is ~100 fold (EC50 relative to STF2.OVA).
